A mixed list of measured activities; the numbers were collected in NIAID ChemDB.

Common to all: tests in culture; agent: HIV-1; endpoint: fold resistance

Fold resistance has wild type as its base. Lines come from different laboratories, so protocols vary.

structure,cell line,strain,mutations,method,value
CN[C@H]1CO[C@@H]2OCC[C@H](OC(=O)N[C@@H](Cc3cccc(OC)c3)[C@H](O)CN(CC(C)C)S(=O)(=O)c3ccc4nc(NC(C)C)sc4c3)[C@@H]21,MT-4,NL4-3,L10I M46L I54V V82A,p24 / luminescence,0.4
Cc1ccnc2c1NC(=O)c1cccnc1N2C1CC1,CEM + CEM-SS,HEPT-resistant (RT P236L),RT-P236L,XTT,2
Nc1nc(NC2CC2)c2ncn([C@H]3C=C[C@@H](CO)C3)c2n1,HeLa,Recombinant,RT-M41L S68N G112S M184V,luciferase,1.4
Cc1ccnc2c1NC(=O)c1cccnc1N2C1CC1,HT4 + HT4 LacZ-1,HXB2,RT-L74V,plaque count,0.833
CCN(c1nc(F)ccc1NC(C)(C)C)C1CCN(C(=O)c2cc3cc(NC(=O)N4CCN(C)CC4)ccc3[nH]2)CC1,MT-2,IIIB,M200I,p24 / ELISA,0.9
COC(=O)N[C@H](C(=O)N[C@@H](Cc1ccccc1)[C@@H](O)CN(Cc1ccc(-c2ccccn2)cc1)NC(=O)[C@@H](NC(=O)OC)C(C)(C)C)C(C)(C)C,MT-4,NL4-3,L23I E34Q K43I M46I I50L G51A L63P A71V V82A T91A,p24 / luminescence,>213
Cn1c2ccccc2c2c1cc(C#N)c(=O)n2-c1ccc([N+](=O)[O-])cc1,HeLa,Recombinant,RT-M41L A62V S68N G112S V118I M184V,luciferase,>1
C/C=C/CSc1cc(NC(=S)c2ccsc2C)ccc1Cl,CEM + CEM-SS,Calanolide A-resistant (RT T139I),RT-T139I,XTT,8
Cc1cc(S(N)(=O)=O)ccc1NC(=O)COc1ccc(Cl)cc1C(=O)c1cc(Cl)cc(C#N)c1,MAGI,NNRTI-resistant (RT Y181C),RT-Y181C,β-galactosidase,1.35
Cc1cn([C@H]2C[C@H](N=[N+]=[N-])[C@@H](CO)O2)c(=O)[nH]c1=O,CEM + CEM-SS,Costatolide-resistant (RT L100I T139I),RT-L100I T139I,XTT,12
COc1ccc(S(=O)(=O)N(CC(C)C)C[C@@H](O)[C@H](Cc2ccccc2)NC(=O)O[C@H]2CCO[C@H]3OC[C@H](O)[C@H]32)cc1,MT-4,NL4-3,L10I I15V K20R L24I V32I M36I M46I I54V I62V L63P K70Q V82A L88M,p24 / luminescence,4
Cc1cn([C@H]2C=C[C@@H](CO)O2)c(=O)[nH]c1=O,HeLa,Recombinant,RT-M41L S68N G112S M184V,luciferase,0.6
CCN[C@H]1CO[C@@H]2OCC[C@H](OC(=O)N[C@@H](Cc3ccccc3)[C@H](O)CN(CC(C)C)S(=O)(=O)c3ccc4nc(NC5CC5)sc4c3)[C@@H]21,MT-4,NL4-3,L10I M46L I54V V82A,p24 / luminescence,1
CC(C)CN(C[C@@H](O)[C@H](Cc1ccccc1)NC(=O)O[C@H]1CCOC1)S(=O)(=O)c1ccc(N)cc1,MT-2,IIIB,K112M K113E V128I M200I H219P I401T R409K D437N L441P R41K,p24 / ELISA,1.2
CN[C@H]1CO[C@@H]2OCC[C@H](OC(=O)N[C@@H](Cc3ccccc3)[C@H](O)CN(CC(C)C)S(=O)(=O)c3ccc4nc(NC5CC5)sc4c3)[C@@H]21,MT-4,NL4-3,L10I M46L I54V V82A,p24 / luminescence,0.8
Cc1ccc(S(=O)(=O)N(CC(C)C)C[C@@H](O)[C@H](Cc2ccccc2)NC(=O)O[C@H]2CO[C@H]3OCC[C@H]32)cc1,MT-2,IIIB,I401T R409K D437N,p24 / ELISA,4.3